Among the data in article PMC3928294 (2014) are koff values, retold here.

One may read the koff as a measure of how fast the partners let go of each other. Read a high koff as a short-lived complex.

The test has as its target H5 HA (A/Vietnam/1194/04) (influenza A virus A/Vietnam/1194/04 …). The test can be described thus: SPR. (Surface plasmon resonance follows binding to a sensor surface in real time, without labels.)

B1: chimeric H5M9 (antibody, V domains shown)
VH: EVHLQQSGPELVKPGASVKMSCKTSGYTFTEYTIHWMKQSHGKSLEWIGGIFPNNGDTTYNQKFKIRATLTVGKSSSTAYMDLRSLTSEDSAVYYCVRNYGSSYGYFDVWGAGTTVTVSS
VL: DIVLTQSPGSLTVSLGQRATISCRASESVDNFGKSFMHWYQQKPGQSPKLLIYRASNREFGIPARFNGSGSGTDFALTINPVEADDVATYFCQQSNEDPRTFGGGTKLEIK
Take B1: the off-rate constant (koff) was 2.49e-05 s⁻¹.

B2: mouse monoclonal antibody H5M9 (antibody, V domains shown)
VH: B1 VH
VL: B1 VL
Regarding B2, the koff was determined as 2.1e-05 s⁻¹.

B3: CDR-grafted (humanized) antibody hH5M9 (antibody, V domains shown)
VH: EVKLQQSGPELVKPGASVKMSCKASGYTFTEYTIHWMKQKPGQGLEWIGGIFPNNGDTTYNQKFKIRATLTVDKSSSTAYMELSSLTSEDSAVYYCARNYGSSYGYFDVWGQGTTVTVSS
VL: DIVLTQSPASLAVSLGQRATISCRASESVDNFGKSFMHWYQQKPGQPPKLLIYRASNREFGVPARFSGSGSGTDFTLNIHPVEEEDAATYYCQQSNEDPRTFGGGTKLEIK
As for B3, the off-rate constant (koff) is 0.00018 s⁻¹.
